# Zika virus NS2B-NS3: effect of single substitutions on growth in cell culture

Reference: Ni et al. 2025, doi:10.1038/s41467-025-63602-z.

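Pools of virus carrying all single amino acid changes were selected for growth in Huh-7.5 cells. Sequencing of three replicate libraries (two for positions 207-308) was averaged into one effect per change.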

Protein: NS2B and the protease part of NS3 of Zika virus strain MR766. Positions count along the chain below; NS2B spans 2-131 and NS3 starts at 132.
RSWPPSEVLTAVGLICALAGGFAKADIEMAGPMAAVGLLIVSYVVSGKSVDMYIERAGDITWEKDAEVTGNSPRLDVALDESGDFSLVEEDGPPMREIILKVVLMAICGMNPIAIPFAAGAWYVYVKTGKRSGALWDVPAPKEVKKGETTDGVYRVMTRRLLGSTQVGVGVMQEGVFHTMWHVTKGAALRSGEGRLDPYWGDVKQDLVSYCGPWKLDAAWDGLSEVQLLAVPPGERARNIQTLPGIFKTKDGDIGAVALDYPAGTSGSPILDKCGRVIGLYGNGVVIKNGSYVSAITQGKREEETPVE

Scale: log2 effect, wild type = 0; the lower, the more harmful to the virus.
A change reads original residue, position, new residue.

{"mutation": "I270K", "effect (log2)": -4.29}
{"mutation": "V176H", "effect (log2)": -4.43}
{"mutation": "V36D", "effect (log2)": -3.94}
{"mutation": "V41*", "effect (log2)": -7.33}
{"mutation": "S294L", "effect (log2)": -6.10}
{"mutation": "R56T", "effect (log2)": -5.65}
{"mutation": "S164I", "effect (log2)": -1.17}
{"mutation": "K142R", "effect (log2)": -0.35}
{"mutation": "A23Q", "effect (log2)": 0.09}
{"mutation": "P94Q", "effect (log2)": -1.52}
{"mutation": "V68M", "effect (log2)": -5.31}
{"mutation": "A219G", "effect (log2)": -3.73}
{"mutation": "V68W", "effect (log2)": -6.09}
{"mutation": "T165M", "effect (log2)": -0.67}
{"mutation": "I115G", "effect (log2)": -6.15}
{"mutation": "K101M", "effect (log2)": -6.02}
{"mutation": "E28Q", "effect (log2)": -0.73}
{"mutation": "S291N", "effect (log2)": -3.81}
{"mutation": "S2L", "effect (log2)": -7.96}
{"mutation": "R238K", "effect (log2)": 2.02}
{"mutation": "S191D", "effect (log2)": -2.81}
{"mutation": "P94A", "effect (log2)": -1.80}
{"mutation": "F85Y", "effect (log2)": 0.27}
{"mutation": "R301G", "effect (log2)": -6.41}
{"mutation": "P244Q", "effect (log2)": -4.95}
{"mutation": "L104F", "effect (log2)": -3.41}
{"mutation": "G255Y", "effect (log2)": -6.66}
{"mutation": "V88D", "effect (log2)": -5.44}
{"mutation": "G37I", "effect (log2)": -5.28}
{"mutation": "L259H", "effect (log2)": -5.59}
{"mutation": "R56I", "effect (log2)": -2.78}
{"mutation": "A295P", "effect (log2)": -6.63}
{"mutation": "C16R", "effect (log2)": -8.53}
{"mutation": "D26H", "effect (log2)": -2.57}
{"mutation": "T69Q", "effect (log2)": -6.50}
{"mutation": "A134V", "effect (log2)": -3.46}
{"mutation": "T297R", "effect (log2)": -6.04}
{"mutation": "I113K", "effect (log2)": -5.55}
{"mutation": "V12S", "effect (log2)": -1.10}
{"mutation": "L18R", "effect (log2)": -8.52}
{"mutation": "G13Y", "effect (log2)": -5.52}
{"mutation": "K273R", "effect (log2)": -0.80}
{"mutation": "I270Q", "effect (log2)": -3.60}
{"mutation": "G70M", "effect (log2)": -5.94}
{"mutation": "A134S", "effect (log2)": -5.64}
{"mutation": "E81Y", "effect (log2)": -6.19}
{"mutation": "Y292V", "effect (log2)": -5.24}
{"mutation": "L87F", "effect (log2)": -2.76}
{"mutation": "R131A", "effect (log2)": -6.44}
{"mutation": "P94M", "effect (log2)": -1.51}

The last 4 entries again:

* Y292V -> -5.24
* L87F -> -2.76
* R131A -> -6.44
* P94M -> -1.51

Values above 0 are not proof of better growth: six high scorers were tested one by one, five grew less well than wild type and one about as well.
Stop codons (*) centre on -7 and mark the level of dead virus.
Positions 1-103, 104-206 and 207-308 were made and measured as separate libraries.
Position 1 still belongs to NS2A. In the paper, -1 or higher counts as tolerated.